Source: patent US20050089926A1, “Ligand sensing fluorescent acetylcholinesterase for detection of organophosphate activity” (priority 2002, published 2005)

B1: E84C (protein, UniProt P21836 32-614, looked up, variant E84C)
Acetylcholinesterase: EGREDPQLLVRVRGGQLRGIRLKAPGGPVSAFLGIPFAEPPVGSRRFMPPEPKRPWSGVLDATTFQNVCYQYVDTLYPGFEGTCMWNPNRELSEDCLYLNVWTPYPRPASPTPVLIWIYGGGFYSGAASLDVYDGRFLAQVEGAVLVSMNYRVGTFGFLALPGSREAPGNVGLLDQRLALQWVQENIAAFGGDPMSVTLFGESAGAASVGMHILSLPSRSLFHRAVLQSGTPNGPWATVSAGEARRRATLLARLVGCPPGGAGGNDTELIACLRTRPAQDLVDHEWHVLPQESIFRFSFVPVVDGDFLSDTPEALINTGDFQDLQVLVGVVKDEGSYFLVYGVPGFSKDNESLISRAQFLAGVRIGVPQASDLAAEAVVLHYTDWLHPEDPTHLRDAMSAVVGDHNVVCPVAQLAGRLAAQGARVYAYIFEHRASTLTWPLWMGVPHGYEIEFIFGLPLDPSLNYTTEERIFAQRLMKYWTNFARTGDPNDPRDSKSPQWPPYTTAAQQYVSLNLKPLEVRRGLRAQTCAFWNRFLPKLLSATDTLDEAERQWKAEFHRWSSYMVHWKNQFDHYSKQERCSDL
B2: A262C (protein, UniProt P21836 32-614, looked up, variant A262C)
Acetylcholinesterase: B1 Acetylcholinesterase with C84E, A262C
B3: H287C (protein, UniProt P21836 32-614, looked up, variant H287C)
Acetylcholinesterase: B1 Acetylcholinesterase with C84E, H287C

Tests used:
[1] = test system: mouse AChE mutants labeled with acrylodan; assay: Acrylodan fluorescence emission with saturating fasciculin
[2] = test system: mouse AChE mutants labeled with acrylodan; details: acrylodan-labeled mutant; data from Boyd et al. 2000; cited from earlier work

Row | Molecule | Acrylodan Emission Maxima, Saturating Fasciculin ([1]; acrylodan-labeled mutant) | Chromic Shift ([1]; saturating fasciculin, acrylodan-labeled mutant) | Relative Quantum Yield ([1]; saturating fasciculin, areas of emission curves) | Acrylodan Emission Maxima, Saturating Fasciculin [2]
1 | B1 | 512 nm | 35 nm | 0.47 | –
2 | B2 | – | – | – | 517 nm
3 | B3 | – | – | – | 507 nm

Where a chain is given by its changes, count along the chain named. Names may count otherwise. Like-named read-outs stand apart in the source and are kept apart here.
